Library screen at single concentrations

Source: ChEMBL document CHEMBL3988442, “University of Dundee, Small-Polar-MMV Screening Library” (2021).

Results are given as percent effect. The record does not define 0% and 100%; most values in the screen are far below 50% and negative numbers occur (in some assays of this library far below -100). Many other results are left out here, so strong results are more common than in the screen.

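Whole-cell growth test on Mycobacterium tuberculosis, read after 4 days in a medium based on cholesterol and the lipid DPPC; the read-out is not stated. Compounds at 500 µM. The record gives no direction; compounds that gave an IC50 in retests scored well above the rest, so higher reads as more growth inhibition. Of about 18,000 compounds tested this way, about 900 (5%) reached 50% or more in at least one test.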

structure: O=C(Nc1cccc(OCC(F)F)n1)C1CCOC1 (stereo not shown)
Percent Effect: 8.313

structure: CC(O)C1CCN(Cc2ccccc2C#N)CC1 (stereo not shown)
Percent Effect: 0.3334

structure: CN(C(=O)Cc1ccncc1)C1CCOC(C)(C)C1 (stereo not shown)
Percent Effect: 6.184

structure: CC/C(C)=C/CCN1CCC2(CCCNC2=O)C1 (stereo not shown)
Percent Effect: 5.783

structure: CC1(NC(=O)CSc2ccccn2)CCS(=O)(=O)C1 (stereo not shown)
Percent Effect: -1.343

structure: C=C(C)c1nc(C#N)c(NCc2ccco2)o1
Percent Effect: 76.18

structure: CCCc1nc(CN2CCN(C(C)=O)CC2)cs1
Percent Effect: 14.41

structure: Cc1nnsc1CN(C)Cc1ccc(N(C)C)nc1
Percent Effect: 38.08

structure: CCC(CO)NS(=O)(=O)c1ccc(C)cc1 (stereo not shown)
Percent Effect: 3.732

structure: CCN(CCO)c1ncnc2onc(C)c12
Percent Effect: -3.497

structure: CC(C)OCCN(CC(N)=O)C(C)C
Percent Effect: 18.63

structure: CCS(=O)(=O)N1CC(C(=O)NC)Oc2ccccc21 (stereo not shown)
Percent Effect: -17.93

structure: CC(O)CN1CCC(CN(C)Cc2nccn2C)CC1 (stereo not shown)
Percent Effect: -7.496

structure: NC1(c2nc(-c3ccccc3)c[nH]2)CCCC1
Percent Effect: 67.14

structure: CC(C)N(C)S(=O)(=O)N(C)Cc1ccc(Br)o1
Percent Effect: 83.9

structure: Cc1noc(CNC(CCO)C(C)C)n1 (stereo not shown)
Percent Effect: 64.47

structure: Cc1ccc(C(=O)NCCSc2nncn2C)s1
Percent Effect: -4.461

structure: Cn1cc(CCCNC(=O)COc2cccnc2)cn1
Percent Effect: 9.683

structure: N#Cc1ccnc(OC(F)F)c1
Percent Effect: -19.93

structure: COCC(=O)NC(C)c1ccc(OC(C)C)c(OC)c1 (stereo not shown)
Percent Effect: 7.605

structure: O=C(c1ccccc1)N1CCN(Cc2ccco2)CC1
Percent Effect: 29.11

structure: COc1cc(C(=O)NC(C)CC#N)ccc1C (stereo not shown)
Percent Effect: 60.42

structure: CN(CCC#N)C(=O)COC(=O)c1ccccc1Br
Percent Effect: 0.9744

structure: O=C(CCN1C(=O)CCC1=O)OCC(=O)c1ccc[nH]1
Percent Effect: -5.928

structure: NCC1CCN(C2CCCCC2)C1 (stereo not shown)
Percent Effect: 8.584

structure: O=C1CCc2cc(NC3CCS(=O)(=O)CC3)ccc2N1
Percent Effect: -5.914

structure: COC(CN)C1CC1 (stereo not shown)
Percent Effect: -5.229

structure: CN(CC(C)(CO)CO)c1ncc(Cl)cc1Cl
Percent Effect: 70.57

structure: COCCNC(=O)C1CCCc2ccccc21 (stereo not shown)
Percent Effect: 8.373

structure: Cc1ccc2nc(COCC(=O)NCCN)[nH]c2c1
Percent Effect: 7.496

structure: COC(=O)c1cc(C#N)ccc1F
Percent Effect: -9.915

structure: CC(C)(C)OC(=O)N1CCN(C(=O)CN)CC1
Percent Effect: -6.769

structure: Cc1ccc(C(=O)Nc2cnn(C)c2)cn1
Percent Effect: 62.06

structure: CCC(c1nnc(SCC(=O)NCC(C)C)o1)N(C)C (stereo not shown)
Percent Effect: 54.71

structure: O=C(CO)N1CCCC(CCc2ccccc2F)C1 (stereo not shown)
Percent Effect: 48.21

structure: COc1ccc(CN2C[C@H](O)[C@@H](N(C)C)C2)c(C)c1C
Percent Effect: 65.77

structure: Cc1ccc(NC(C)C(=O)N2CCNC2=O)cc1F (stereo not shown)
Percent Effect: 32.29

structure: CC(=O)c1ccc(C(=O)NCCN2CCOCC2)s1
Percent Effect: -4.009

structure: COc1cccc(S(=O)(=O)CCN(C)CCO)c1
Percent Effect: 96.74

structure: NCC(O)c1ccc(Cl)c(F)c1 (stereo not shown)
Percent Effect: 37.43

For reference, 3 entries once more:

- COCCNC(=O)C1CCCc2ccccc21 (stereo not shown) : 8.373%
- N#Cc1ccnc(OC(F)F)c1 : -19.93%
- Cc1ccc(C(=O)Nc2cnn(C)c2)cn1 : 62.06%